Source: PMC3848071 (Acta Naturae, 2013)

Key:
Experiment in all cases: purified protein
[1] = test system: CCSC[C@H](N)C(=O)O
[2] = test system: C[S+]([O-])CC[C@H](N)C(=O)O
[3] = test system: N[C@@H](CSCc1ccccc1)C(=O)O

**Q.** Which Km [1] does the source give for “MGL from C. tetani (Clostridium tetani E88)” here?
**A.** 720 µM

**Q.** What about the kcat/Km [1] of the same substance?
**A.** 9830 M⁻¹ s⁻¹

**Q.** And the Km [2]?
**A.** 7070 µM

**Q.** What about the kcat/Km [2] of the same substance?
**A.** 382 M⁻¹ s⁻¹

**Q.** And the Km [3]?
**A.** 766 µM

**Q.** And the kcat/Km [3]?
**A.** 11100 M⁻¹ s⁻¹
